According to patent US9063046B1, “Hand-held device with reagents and method for detection and diagnostics” (priority 2012, dated 2015):
“Also recorded” adds a separate entry of the source.

How the values were obtained:
[1] = system: VACV; parameters: species or system Vaccinia virus
[2] = system: PIXV; parameters: species or system Pixuna virus
[3] = system: VACV; parameters: species or system Vaccinia virus; details: at inactivating concentration, without post-treatment with EDTA

With cupric ascorbate the “PCR signal for VACV at five-fold higher concentration” value ([1]; cupric ascorbate five-fold higher than 0.5% in Cu++) was “lost”, the “increase in number of PCR cycles to detect VACV relative to controls” value ([1]; relative to controls not exposed to germicidal agent) was roughly 0 cycles and the “PCR signal for PIXV at five-fold higher concentration” value [2] was “lost”. The “increase in number of PCR cycles to detect PIXV relative to controls” value [2] was roughly 0 cycles and the “effect on ELISA of VACV” value [3] was “completely inhibits; also recorded: impairs”.
